Measurements published in article PMC5749684, “Tetrahydrocarbazoles are a novel class of potent P-type ATPase inhibitors with antifungal activity” (PLoS ONE, 2018).

Sequences of proteins named here, by UniProt entry; tags and fusion partners are left off.
UniProt P28877, whole entry: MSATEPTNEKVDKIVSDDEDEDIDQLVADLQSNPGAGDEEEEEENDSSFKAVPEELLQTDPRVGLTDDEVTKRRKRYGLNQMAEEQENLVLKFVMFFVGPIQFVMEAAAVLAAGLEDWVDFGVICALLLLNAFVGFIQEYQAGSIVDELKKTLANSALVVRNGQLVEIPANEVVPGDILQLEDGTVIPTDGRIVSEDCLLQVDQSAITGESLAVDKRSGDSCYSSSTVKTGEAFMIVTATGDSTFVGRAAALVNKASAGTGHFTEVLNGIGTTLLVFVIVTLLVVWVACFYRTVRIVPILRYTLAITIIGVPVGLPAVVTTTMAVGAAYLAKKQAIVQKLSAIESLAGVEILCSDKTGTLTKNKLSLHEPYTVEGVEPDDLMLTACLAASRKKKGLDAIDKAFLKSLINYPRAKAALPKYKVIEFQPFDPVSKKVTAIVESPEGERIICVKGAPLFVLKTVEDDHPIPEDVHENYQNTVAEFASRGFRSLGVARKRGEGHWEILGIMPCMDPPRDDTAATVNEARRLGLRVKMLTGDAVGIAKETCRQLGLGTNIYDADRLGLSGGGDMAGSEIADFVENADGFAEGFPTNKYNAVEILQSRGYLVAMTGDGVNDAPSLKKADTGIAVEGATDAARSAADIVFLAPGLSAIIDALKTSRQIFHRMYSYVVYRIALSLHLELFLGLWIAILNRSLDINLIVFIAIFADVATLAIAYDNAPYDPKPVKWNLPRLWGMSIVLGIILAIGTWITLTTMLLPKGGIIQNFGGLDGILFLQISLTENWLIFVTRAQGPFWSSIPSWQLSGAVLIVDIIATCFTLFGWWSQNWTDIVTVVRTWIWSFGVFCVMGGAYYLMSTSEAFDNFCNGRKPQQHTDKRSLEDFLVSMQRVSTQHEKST

Molecular target: Candida albicans Pma1 (Candida albicans, UniProt P28877)
Experiment: ATP hydrolysis inhibition, C. albicans Pma1
Type: biochemical
Settings: read-out: ATP hydrolysis IC50 CaPma1 (Table B); Table B in S1 File
Procedure: Candida albicans microsomes were prepared from 100 mL overnight culture in YPD (10 g/L yeast extract (BD, Sparks, MD), 20 g/L Bacto peptone (BD, Sparks, MD), 20 g/L D-(+)-glucose), transferred to 1 L YPD and grown at RT, 150 rpm, for 7 h. Cells were harvested and washed in deionized water followed by centrifugation at 3360 x g. The cells were glucose-activated by the addition of 10% (w/v) D-(+)-glucose for 10 minutes while shaking. […]
ATPase activity was determined by measuring the amount of liberated phosphate from ATP hydrolysis. […] The amount of liberated phosphate was determined colorimetrically after addition of STOP solution (mixture of L-ascorbic acid, ammonium heptamolybdate tetrahydrate, and HCl to give final concentrations of 65 mM, 2.2 mM, and 189 mM, respectively) with 5 minutes incubation at room temperature (RT) followed by addition of arsenite solution (mixture of NaAsO2, sodium citrate dihydrate, and acetic acid to give final concentrations of 3.1 mM, 28 mM, and 141 mM, respectively). Absorption was measured at 860 nm after additional 30 minutes incubation at RT.

CC1Cc2c([nH]c3cc(Cl)c(F)cc23)C2(N1)C(=O)Nc1ccc(Cl)cc12 (stereo not shown)
IC50: 150 nM
